Measurements as given in patent publication US6841566B2, “Viral polymerase inhibitors” (Boehringer Ingelheim, Ltd., priority 2001, dated 2005).

Amino acid sequences for entries named in this document (tags omitted). Chains listed by the source or under a name are the forms on record and can include a tag or linker. Residues count along the entry.
UniProt P26663, 2420-3010 with tags or gaps with the stated changes: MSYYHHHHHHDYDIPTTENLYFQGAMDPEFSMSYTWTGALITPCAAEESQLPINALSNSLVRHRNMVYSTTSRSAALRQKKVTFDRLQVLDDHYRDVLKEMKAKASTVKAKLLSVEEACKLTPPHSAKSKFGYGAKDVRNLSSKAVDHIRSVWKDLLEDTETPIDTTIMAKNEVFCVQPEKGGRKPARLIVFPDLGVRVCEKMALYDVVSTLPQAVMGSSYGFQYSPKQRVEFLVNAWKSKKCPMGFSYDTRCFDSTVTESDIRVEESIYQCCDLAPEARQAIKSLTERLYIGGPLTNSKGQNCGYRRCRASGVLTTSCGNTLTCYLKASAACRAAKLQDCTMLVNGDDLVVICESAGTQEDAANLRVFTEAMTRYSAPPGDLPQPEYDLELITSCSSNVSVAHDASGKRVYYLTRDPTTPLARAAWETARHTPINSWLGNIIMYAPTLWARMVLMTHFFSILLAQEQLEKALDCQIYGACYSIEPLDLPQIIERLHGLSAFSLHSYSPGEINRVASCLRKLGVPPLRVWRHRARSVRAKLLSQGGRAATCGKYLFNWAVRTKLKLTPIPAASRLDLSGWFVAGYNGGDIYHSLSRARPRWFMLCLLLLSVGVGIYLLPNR

Legend:
[1] = target: hepatitis C virus RNA dependant polymerase (NS5B) (Hepatitis C virus genotype 1b, UniProt P26663); conditions: HCV NS5B polymerase assay of Example 22
[2] = tested on: Huh7 cells that stably maintain a subgenomic HCV replicon (S22.3 cell-line); experiment: Cell based HCV RNA replication assay (S22.3 replicon cells, real-time RT-PCR); conditions: 72 hours
Method: Huh7 cells that stably maintain a subgenomic HCV replicon were established as previously described (Lohman et al., 1999. Science 285: 110-113) and designated as the S22.3 cell-line. S22.3 cells were maintained in Dulbecco's Modified […] Medium (DMEM) supplemented with 10% FBS and 0.5 mg/mL neomycin (Standard Medium). During the assay, DMEM medium supplemented with 10% FBS, containing 0.5% DMSO and lacking neomycin was used (Assay Medium). 16 hours prior to compound addition, S22.3 cells are trypsinized and diluted to 100 000 cells/ml in Standard Medium. 100μL (10 000 cells) are distributed into each well of a 96-well plate. The plate was then incubated at 37° C. with 5% CO2 until the next day.
10 μL of test compound (in 100% DMSO) was added to 2 ml of Assay Medium for a final DMSO concentration of 0.5% and the solution was sonicated for 15 min and filtered through a […] Millipore Filter Unit. 900 μl was transferred into row A of a Polypropylene Deep-Well Titer Plate. Rows B to H, contain 400 μL aliquots of Assay Medium (containing 0.5% DMSO), and were used to prepare serial dilutions (1/2) by transferring 400 μl from row to row (no compound was included in row H).
Cell culture medium was aspirated from the 96-well plate containing the S22.3 cells. 175 μL of assay medium with the appropriate dilution of test compound was transferred from each well of the compound plate to the corresponding well of the cell culture plate (row H was used as the “No inhibition control”). The cell culture plate was incubated at 37° C. with 5% CO2 for 72 hours.
Following the 72 hour incubation period, the total cellular RNA was extracted from the S22.3 cells of the 96-well plate using the RNeasy 96 kit (Qiagen®, RNeasy Handbook. 1999.). Briefly, assay medium was completely removed from cells and 100 μL of RLT buffer (Qiagen®) containing 143 mM β-mercaptoethanol was added to each well of the 96-well cell-culture plate. The microplate was gently shaken for 20 sec. […]
RNA was quantified on the STORM® system (Molecular Dynamics®) using the RiboGreen® RNA Quantification Kit (Molecular Probes®). […]

Structure (SMILES) | IC50 [1] [µM] | EC50 [2] [µM]
CC(NC(=O)c1ccc2c(c1)nc(-c1ccoc1)n2C1CCCCC1)C(=O)Nc1ccc(OCC(=O)O)cc1 (stereo not drawn) | 0.5 to 5 | –
Cc1cc2c(cc1C(=O)N[C@H](C)C(=O)Nc1ccc(/C=C/C(=O)O)cc1)nc(-c1ccoc1)n2C1CCCCC1 | 0.5 to 5 | –
C[C@@H](NC(=O)c1ccc2c(n1)nc(-c1ccoc1)n2C1CCCCC1)C(=O)Nc1ccc(/C=C/C(=O)O)cc1 | < 0.5 | 5 to 50
Cc1c(C(=O)N[C@H](C)C(=O)Nc2ccc(/C=C/C(=O)O)cc2)ccc2c1nc(-c1ccoc1)n2C1CCCCC1 | 0.5 to 5 | 5 to 50
C=CC1CC1(NC(=O)c1ccc2c(c1)nc(-c1ccoc1)n2C1CCCCC1)C(=O)Nc1ccc(/C=C/C(=O)O)cc1 (single isomer, unassigned) | < 0.5 | < 5
Cc1nc(Nc2ccc(NC(=O)C3(NC(=O)c4ccc5c(c4)nc(-c4ccoc4)n5C4CCCCC4)CCCC3)cn2)sc1C(=O)O | 0.5 to 5 | –
